Earlier results in publication PMC5086636 (Toxins, 2016).

Amino acid sequences for entries named in this document (tags omitted). Residues count along the entry.
UniProt P29101, 37-86: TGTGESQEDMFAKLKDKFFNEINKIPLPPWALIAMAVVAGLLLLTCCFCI

Biological target: Synaptotagmin-II 37-86 (UniProt P29101)
Conditions: cited from earlier work

Substance: BoNT/B 1241-1277 (from UniProt P10844)
- Kd: 299 nM
